Measured values from several laboratories, pooled; numbers as filed in NIAID ChemDB.

All rows: whole-cell or culture tests; species: Mycobacterium tuberculosis

MIC50, MIC90 and the like: level of inhibition, or share of isolates inhibited.

structure,mutations,cell line,strain or isolate,read by,dose,setting,measure,value
CO[C@H]1/C=C/O[C@@]2(C)Oc3c(C)c(O)c4c(O)c(c(/C=N/N5CCN(C)CC5)c(O)c4c3C2=O)NC(=O)/C(C)=C\C=C\[C@H](C)[C@H](O)[C@@H](C)[C@@H](O)[C@@H](C)[C@H](OC(C)=O)[C@@H]1C,531Leu,,,,,,MIC99,≥640 µg/mL
Cc1ccc(N=Nc2c(O)c3ccc(Cl)c(Cl)c3[nH]c2=O)cc1,,,H37Rv,resazurin,6.25 µg/mL,,inhibition,54%
O=C(NNCc1ccccc1)c1ccncc1,,,H37Rv,,,,MBC,3.13 µg/mL
CCN1C(NNC(=O)c2cnccn2)=NS(=O)(=O)c2ccccc21,,,Clinical isolates drug-sensitive,,,,MIC,8–16 µg/mL
CCn1c(SCC(=O)N/N=C/C=C/c2ccc([N+](=O)[O-])o2)nnc1-c1ccco1,,,H37Rv,,,,EC50,>6.25 µg/mL
Nn1c(CCCCCCCCc2nnc(COc3ccc4ccccc4c3O)n2N)nnc1COc1ccc2ccccc2c1O,,,H37Rv,resazurin,,,MIC bound,>6.25 µg/mL
CCn1c(SCC(=O)N/N=C/c2ccc(OC)cc2)nnc1-c1ccco1,,,H37Rv,,,,EC50,>6.25 µg/mL
CC(NNC(=O)c1ccncc1)c1ccc(Cl)c(Cl)c1,,,Thiacetazone-resistant,,,,MIC,>50 µg/mL
COc1ccc(-c2nc(N3CCc4ccccc4C3)[nH]c(=O)c2C#N)cc1,,,H37Ra,,,,MIC,>50 µg/mL
Cc1ncc([N+](=O)[O-])n1CCNC(=O)CCCn1ccnc1[N+](=O)[O-],,,H37Rv,resazurin,,,MIC bound,>6.25 µg/mL
CCCCCCCCN1C(=O)c2cc(Cl)nnc2Oc2ccc(C)cc21,,,H37Rv,BACTEC,,,EC50,>12.5 µg/mL
N#Cc1c(-c2ccc(F)cc2)nc(Nc2ccc(F)cc2)[nH]c1=O,,,H37Ra,,,,MIC,>50 µg/mL
O=C(/C=C/c1ccc(F)cc1Cl)c1ccccc1,,,H37Rv,MTT,,7 d,MIC,32 µg/mL
CC[C@H]1OC(=O)[C@H](C)[C@@H](O[C@H]2C[C@@](C)(OC)[C@@H](O)[C@H](C)O2)[C@H](C)[C@@H](O[C@@H]2O[C@H](C)C[C@H](N(C)C)[C@H]2O)[C@](C)(OC)C[C@@H](C)C(=O)[C@H](C)[C@@H](O)[C@]1(C)O,,,MDR-22 (MDR),,,,MIC,>8 µg/mL
C=C1C(=O)O[C@@H](CCCCCCCCCCCCC)[C@@H]1C(=O)O,,,H37Rv,BACTEC,,,MIC,≥128 µg/mL
Cc1c(Cl)cccc1N=Nc1c(O)c2cccc([N+](=O)[O-])c2[nH]c1=O,,,H37Rv,resazurin,6.25 µg/mL,,inhibition,56%
CO[C@H]1/C=C/O[C@@]2(C)Oc3c(C)c(O)c4c(=O)c(c5oc6cc(N7CCN(CC(C)C)CC7)cc(=O)c6nc5c4c3=C2O)NC(=O)/C(C)=C\C=C\[C@H](C)[C@H](O)[C@@H](C)[C@@H](O)[C@@H](C)[C@H](OC(C)=O)[C@@H]1C,,,29 (rifampicin-resistant),,,,MIC,4 µg/mL
O=C(OCc1ccccc1)c1ccccc1-c1c2ccc(=O)cc-2oc2cc(OCc3ccccc3)ccc12,,,H37Rv,BACTEC,,,MIC bound,>12.5 µg/mL
Cc1c(OCC(F)(F)F)ccnc1CSc1nc2ccccc2[nH]1,,,Erdman,resazurin,,,MIC90,1.21 µM
O=[N+]([O-])c1cn2c(n1)OC[C@@H](OCc1ccc(Oc3ccc(F)cc3)cn1)C2,,,,low oxygen,,,MIC90,12 µM
CN(C)c1ccc(-c2nc(NCCCN3CCOCC3)[nH]c(=O)c2C#N)cc1,,,H37Ra,,,,MIC,>50 µg/mL
CC(C)N1C(NNC(=O)c2cnccn2)=NS(=O)(=O)c2ccccc21,,,H37Rv (ATCC 27294),,,,MIC,>16 µg/mL
CCCCCCCCCN1C(=O)c2cc(Cl)nnc2Oc2ccc(C)cc21,,,H37Rv,BACTEC,,,EC50,>12.5 µg/mL
CN1C(NC(=O)c2cnccn2)=NS(=O)(=O)c2cc(Cl)ccc21,,,Clinical isolates drug-sensitive,,,,MIC,>16 µg/mL
O=C(/C=C/c1ccccc1Cl)c1ccc(F)cc1,,,H37Rv,MTT,,21 d,MIC,32 µg/mL
O=[N+]([O-])c1cn2c(n1)OC[C@@H](OCc1ccc(N3CCC(Oc4ccc(OC(F)(F)F)cc4)CC3)cc1)C2,,,,low oxygen,,,MIC90,2.2 µM
C[C@@H]1CN(c2c(F)c(N)c3c(=O)c(C(=O)O)cn(C4CC4)c3c2F)C[C@H](C)N1,,,S-5M (susceptible),,,,MIC,0.2 µg/mL
CCN1C(NNC(=O)c2cccnc2)=NS(=O)(=O)c2ccccc21,,,Clinical isolates drug-resistant,,,,MIC,>16 µg/mL
COc1ccccc1N=Nc1c(O)c2ccc([N+](=O)[O-])cc2[nH]c1=O,,,H37Rv,resazurin,,,MIC,<6.25 µg/mL
O=C(/C=C/c1ccccc1)c1ccc(O)cc1,,,H37Rv,MTT,,,MIC,32 µg/mL
COc1ccccc1NC(=O)C(N=Nc1ccc(-c2nc3ccc(C)c(S(=O)(=O)O)c3s2)cc1S(=O)(=O)O)C(C)=O,,,H37Rv,BACTEC,,,MIC bound,>12.5 µg/mL
COc1ccc(C(=O)/C=C/c2ccc(F)cc2Cl)cc1,,,H37Rv,MTT,,7 d,MIC,32 µg/mL
CN1C(=O)C(=O)N(Cc2ccc(CN3C(=O)C(=O)N(C)C3=O)cc2)C1=O,,,H37Rv,BACTEC,,,MIC bound,>12.5 µg/mL
NNC(=O)c1ccncc1,,,188 strains,,,,MIC50,0.06 µg/mL
N#Cc1c(-c2cccnc2)nc(N2CCN(c3ccccc3)CC2)[nH]c1=O,,,H37Ra,,,,MIC,>50 µg/mL
CCN(CC)CCn1c2ccccc2c2cc3cnccc3c(C)c21,,,H37Rv,resazurin,,,MIC bound,<6.25 µg/mL
O=C(N/N=C/c1cccc(C(F)(F)F)c1)c1ccncc1,,,Ciprofloxacin-resistant,,,,MIC,0.39 µg/mL
CCCCCCCCCN1C(=O)c2cc(Cl)nnc2Oc2ccc(Cl)cc21,,,H37Rv,BACTEC,,,EC50,<12.5 µg/mL
O=c1[nH]c2ccc(Cl)cc2c(O)c1N=Nc1ccc([N+](=O)[O-])cc1,,,H37Rv,resazurin,,,MIC,<6.25 µg/mL
CCn1c(SCC(=O)N/N=C/c2ccc([N+](=O)[O-])cc2)nnc1-c1ccco1,,,H37Rv,,6.25 µg/mL,,inhibition,12%
N#C[B][n+]1ccc(C(=O)NNCc2ccccc2)cc1,,Macrophages,Erdman,colony count,,inside macrophages,EC90,0.116 µg/mL
Cc1ccc2c(c1)N(CCCC1CCCCC1)C(=O)c1cc(Cl)nnc1O2,,,H37Rv,BACTEC,12.5 µg/mL,,inhibition,8%
O=[N+]([O-])c1cn2c(n1)OC[C@@H](OCc1ccc(-c3ccc(Oc4ccc(C(F)(F)F)cc4)cc3)cc1)C2,,,,resazurin,,,MIC90,0.12 µM
CCn1c(SCC(=O)NN)nnc1-c1ccco1,,,H37Rv,,,,MIC,>6.25 µg/mL
O=C(NNC1=NS(=O)(=O)c2ccccc2N1c1ccccc1)c1ccncc1,,,Clinical isolates drug-sensitive,,,,MIC,>16 µg/mL
CCCCN(C)/N=N/c1nc[nH]c1C(N)=O,,,H37Rv,BACTEC,,,MIC,≥12.5 µg/mL
O=[N+]([O-])c1cn2c(n1)OC[C@@H](OCc1ccc(C#Cc3ccc(C(F)(F)F)cn3)cc1)C2,,,,resazurin,,,MIC90,0.2 µM
CN1C(NNC(=O)c2cccnc2)=NS(=O)(=O)c2ccccc21,,,Clinical isolates drug-sensitive,,,,MIC,>16 µg/mL
COc1ccc(N=Nc2c(O)c3cccc([N+](=O)[O-])c3n(C)c2=O)c(C)c1,,,H37Rv,resazurin,6.25 µg/mL,,inhibition,40%
N#Cc1c(-c2cccnc2)nc(N2CCc3ccccc3C2)[nH]c1=O,,,H37Ra,,,,MIC,>50 µg/mL
CC(=O)NCCc1nc(-c2nc(C(=O)NCCCN)cs2)cs1.Cl,,,H37Rv,BACTEC,12.8 µg/mL,,inhibition,32%
Cc1ccc(C(=O)/C=C/c2ccccc2)c(F)c1,,,H37Rv,resazurin,,7 d,MIC,16 µg/mL
Cc1ccc2c(c1)Oc1nnc(Cl)cc1C(=O)N2Cc1ccccc1,,,H37Rv,BACTEC,12.5 µg/mL,,inhibition,59%
NC(=O)/C(N=Nc1ccccc1)=N/Nc1ccccc1,,,H37Rv,BACTEC,,,MIC bound,>12.5 µg/mL
O=[N+]([O-])c1cn2c(n1)OC[C@@H](OCc1ccc(CNc3ccc(OC(F)(F)F)cc3)cc1)C2,,,,resazurin,,,MIC90,0.06 µM
COc1ccc(C(=O)/C=C/c2ccccc2Cl)c(F)c1,,,H37Rv,resazurin,,21 d,MIC,32 µg/mL
O=C(NNCc1ccc(Cl)c(Cl)c1)c1ccncc1,,,H37Rv,,,,MIC,1.6 µg/mL
O=[N+]([O-])c1cn2c(n1)OC[C@@H](OCc1ccc(Cc3ccc(C(F)(F)F)nc3)cc1)C2,,,,low oxygen,,,MIC90,1.5 µM
Cc1cc(=O)cc2sc3c(C)cccc3nc1-2,,,H37Rv,BACTEC,12.5 µg/mL,,inhibition,96%
Cc1ccc2c(c1)Oc1nnc(Cl)cc1C(=O)N2CC1CCCCC1,,,H37Rv,BACTEC,,,EC50,12.5 µg/mL
N#Cc1c(-c2cccnc2)nc(NCCCN2CCOCC2)[nH]c1=O,,,H37Ra,,,,MIC,>50 µg/mL
CN1C(NNC(=O)c2ccc(Cl)nc2)=NS(=O)(=O)c2ccccc21,,,H37Rv (ATCC 27294),,,,MIC,>16 µg/mL
CC1=CC2(C)C3C=C(C)C(C2C(=O)C1=O)C(C)(O)C3=O,,,H37Rv,,6.25 µg/mL,,inhibition,4%
O=[N+]([O-])c1cn2c(n1)OC[C@@H](OCc1ccnc(N3CCC(Oc4ccc(C(F)(F)F)nc4)CC3)c1)C2,,,,resazurin,,,MIC90,0.27 µM
Cc1ccc2nc(N=C([S-])[S-])sc2c1.[K+].[K+],,,H37Rv,BACTEC,,,MIC bound,>12.5 µg/mL
N#Cc1c(-c2cccnc2)nc(NC2CCCCC2)[nH]c1=O,,,H37Ra,,,,MIC,>50 µg/mL
CCCCCN1C(=O)c2cc(Cl)nnc2Oc2ccc(C)cc21,,,H37Rv,BACTEC,,,EC50,>12.5 µg/mL
O=C(NNCc1ccccc1F)c1ccncc1,,,H37Rv (rifampin-resistant),,,,MIC,1.95 µg/mL
CNC(=S)Nc1ccc(C)c(Cl)c1,,,H37Rv,BACTEC,12.5 µg/mL,,inhibition,58%
CN(Cc1ccc(CO[C@@H]2COc3nc([N+](=O)[O-])cn3C2)cc1)Cc1ccc(OC(F)(F)F)cc1,,,,resazurin,,,MIC90,0.03 µM
c1ccc(B2OB(c3ccccc3)OB(c3ccccc3)O2)cc1,,,H37Rv,BACTEC,,,MIC,≥128 µg/mL
CO[C@H]1/C=C/O[C@@]2(C)Oc3c(C)c(O)c4c(O)c(c5c(c4c3C2=O)NC2(CCN(CC(C)C)CC2)N=5)=NC(=O)/C(C)=C\C=C\[C@H](C)[C@H](O)[C@@H](C)[C@@H](O)[C@@H](C)[C@H](OC(C)=O)[C@@H]1C,,,16 strains (rifampicin-susceptible),,,,MIC50,0.025 µg/mL
N#Cc1ccccc1C(Cl)(Cl)c1cnccn1,,,H37Rv,BACTEC,,,MIC,≥12.5 µg/mL
O=c1[nH]c2c([N+](=O)[O-])cccc2c(O)c1N=Nc1ccccc1,,,H37Rv,resazurin,6.25 µg/mL,,inhibition,99%
COc1cc(C(=O)NN)cc(OC)c1OC,,,H37Rv,BACTEC,,,MIC,≥12.5 µg/mL
CN1C(NNC(=O)c2cnccn2)=NS(=O)(=O)c2ccc(Cl)cc21,,,Clinical isolates drug-resistant,,,,MIC,>16 µg/mL
CNC(=O)Nc1ccncc1,,,H37Rv,resazurin,6.25 µg/mL,,inhibition,-12%
NC[C@H]1O[C@H](O[C@H]2[C@H](O)[C@@H](O[C@H]3O[C@H](CO)[C@@H](O)[C@H](N)[C@H]3O)[C@H](N)C[C@@H]2N)[C@H](O)[C@@H](O)[C@@H]1O,,,,,,,MIC,20 µg/mL
COC1(OC)c2no[n+]([O-])c2C(OC)(OC)c2c1no[n+]2[O-],,,H37Rv,BACTEC,,,MIC bound,>12.5 µg/mL
COc1ccc(-c2nc(N3CCOCC3)[nH]c(=O)c2C#N)cc1,,,H37Ra,,,,MIC,>50 µg/mL
O=C1c2ccccc2C(=O)c2sc(Nc3ccc(Cl)cc3)nc21,,,H37Rv,BACTEC,12.5 µg/mL,,inhibition,100%
CN(C)c1ccc(-c2nc(N3CCc4ccccc4C3)[nH]c(=O)c2C#N)cc1,,,H37Ra,,,,MIC,>50 µg/mL

Again, the opening 9 rows:

structure | mutations | cell line | strain or isolate | read by | dose | setting | measure | value
CO[C@H]1/C=C/O[C@@]2(C)Oc3c(C)c(O)c4c(O)c(c(/C=N/N5CCN(C)CC5)c(O)c4c3C2=O)NC(=O)/C(C)=C\C=C\[C@H](C)[C@H](O)[C@@H](C)[C@@H](O)[C@@H](C)[C@H](OC(C)=O)[C@@H]1C | 531Leu |  |  |  |  |  | MIC99 | ≥640 µg/mL
Cc1ccc(N=Nc2c(O)c3ccc(Cl)c(Cl)c3[nH]c2=O)cc1 |  |  | H37Rv | resazurin | 6.25 µg/mL |  | inhibition | 54%
O=C(NNCc1ccccc1)c1ccncc1 |  |  | H37Rv |  |  |  | MBC | 3.13 µg/mL
CCN1C(NNC(=O)c2cnccn2)=NS(=O)(=O)c2ccccc21 |  |  | Clinical isolates drug-sensitive |  |  |  | MIC | 8–16 µg/mL
CCn1c(SCC(=O)N/N=C/C=C/c2ccc([N+](=O)[O-])o2)nnc1-c1ccco1 |  |  | H37Rv |  |  |  | EC50 | >6.25 µg/mL
Nn1c(CCCCCCCCc2nnc(COc3ccc4ccccc4c3O)n2N)nnc1COc1ccc2ccccc2c1O |  |  | H37Rv | resazurin |  |  | MIC bound | >6.25 µg/mL
CCn1c(SCC(=O)N/N=C/c2ccc(OC)cc2)nnc1-c1ccco1 |  |  | H37Rv |  |  |  | EC50 | >6.25 µg/mL
CC(NNC(=O)c1ccncc1)c1ccc(Cl)c(Cl)c1 |  |  | Thiacetazone-resistant |  |  |  | MIC | >50 µg/mL
COc1ccc(-c2nc(N3CCc4ccccc4C3)[nH]c(=O)c2C#N)cc1 |  |  | H37Ra |  |  |  | MIC | >50 µg/mL

Inhibition is in % at the dose shown (toxicity tests: loss of growth or viability). ECn: concentration that inhibits the pathogen or its effect by n%. An empty or dashed field is not shown. MIC bound: limit read from a one-dose screen. Two numbers with a dash give a range or band. Conditions beyond the fields shown may differ between rows.